{"source": "PubChem BioAssay AID1224833, University of Georgia – 2016", "test": "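Human genes whose knock-down alters rotavirus replication in monkey cells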 (primary screen)", "cell system": "monkey MA104 kidney cells", "reagents": "siRNA pool against human genes, 50 nM", "duration": "48 h knock-down before infection; read 24 h after infection", "challenge": "infection with rotavirus strain RV3 two days after transfection; infectious dose for this stage not given", "measured": "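Rotavirus antigen per well by fluorescent immunoassay, normalised to non-targeting control wells on each plate and given as a standard z-score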", "reading the numbers": "z-score vs non-targeting control: higher = more rotavirus replication than with non-targeting control", "active means": "In these data the active calls have z-score vs non-targeting control at about -1 or lower, or at about 1 or higher", "calls": "active = z-score beyond 1 either way; inactive = z-score within 1 of zero", "note": "The deposit covers about 12,000 reagents; shown is an unselected part. About 5,600 of all reagents (46%) count as active. 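Active calls cover z-scores past 1 in both directions, so they include lowered as well as raised rotavirus replication.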 A number with no mark means an inactive call."}
The opening 4 entries, to show the layout:
{"Target gene": "LTBP2", "z-score vs non-targeting control": 0.949}
{"Target gene": "PPP1R27", "z-score vs non-targeting control": "-1 (active)"}
{"Target gene": "MAP6", "z-score vs non-targeting control": 0.1}
{"Target gene": "YTHDC1", "z-score vs non-targeting control": 0.156}

The list itself, repeating the preview:
{"Target gene": "LTBP2", "z-score vs non-targeting control": 0.949}
{"Target gene": "PPP1R27", "z-score vs non-targeting control": "-1 (active)"}
{"Target gene": "MAP6", "z-score vs non-targeting control": 0.1}
{"Target gene": "YTHDC1", "z-score vs non-targeting control": 0.156}
{"Target gene": "ZNF428", "z-score vs non-targeting control": "-1.06 (active)"}
{"Target gene": "IL13RA2", "z-score vs non-targeting control": "1.56 (active)"}
{"Target gene": "BHLHE40", "z-score vs non-targeting control": 0.692}
{"Target gene": "OR1A1", "z-score vs non-targeting control": -0.792}
{"Target gene": "CSTB", "z-score vs non-targeting control": "-1.96 (active)"}
{"Target gene": "KDM8", "z-score vs non-targeting control": -0.687}
{"Target gene": "MLX", "z-score vs non-targeting control": "-1.3 (active)"}
{"Target gene": "UBFD1", "z-score vs non-targeting control": "-1.28 (active)"}
{"Target gene": "BBS4", "z-score vs non-targeting control": "-1.9 (active)"}
{"Target gene": "PTN", "z-score vs non-targeting control": -0.882}
{"Target gene": "CT45A6", "z-score vs non-targeting control": 0.0483}
{"Target gene": "CLEC5A", "z-score vs non-targeting control": -0.854}
{"Target gene": "MRPS34", "z-score vs non-targeting control": "-1.95 (active)"}
{"Target gene": "ZSCAN22", "z-score vs non-targeting control": "1.01 (active)"}
{"Target gene": "LRRC31", "z-score vs non-targeting control": 0.676}
{"Target gene": "C12orf60", "z-score vs non-targeting control": -0.915}
{"Target gene": "PRAMEF2", "z-score vs non-targeting control": "1.84 (active)"}
{"Target gene": "STOX1", "z-score vs non-targeting control": "-2.11 (active)"}
{"Target gene": "MMP3", "z-score vs non-targeting control": 0.823}
{"Target gene": "SLC31A2", "z-score vs non-targeting control": 0.848}
{"Target gene": "ENO2", "z-score vs non-targeting control": 0.586}
{"Target gene": "ARGLU1", "z-score vs non-targeting control": -0.619}
{"Target gene": "ABLIM1", "z-score vs non-targeting control": -0.638}
{"Target gene": "ZIC5", "z-score vs non-targeting control": -0.0919}
{"Target gene": "OR2J2", "z-score vs non-targeting control": -0.185}
{"Target gene": "TNFRSF11B", "z-score vs non-targeting control": 0.597}
{"Target gene": "KATNBL1", "z-score vs non-targeting control": "-1.85 (active)"}
{"Target gene": "PROC", "z-score vs non-targeting control": "-1.02 (active)"}
{"Target gene": "NRXN1", "z-score vs non-targeting control": "-1.27 (active)"}
{"Target gene": "PDGFC", "z-score vs non-targeting control": 0.376}
{"Target gene": "ISX", "z-score vs non-targeting control": "-1.34 (active)"}
{"Target gene": "SHLD1", "z-score vs non-targeting control": "1.37 (active)"}
{"Target gene": "C6orf62", "z-score vs non-targeting control": "-1.43 (active)"}
{"Target gene": "SLC4A11", "z-score vs non-targeting control": "3.02 (active)"}
{"Target gene": "TPX2", "z-score vs non-targeting control": 0.436}
{"Target gene": "SLC38A3", "z-score vs non-targeting control": "-1.08 (active)"}
{"Target gene": "GPNMB", "z-score vs non-targeting control": -0.88}
{"Target gene": "MTERF3", "z-score vs non-targeting control": 0.238}
{"Target gene": "TDP1", "z-score vs non-targeting control": -0.892}
{"Target gene": "GOLT1B", "z-score vs non-targeting control": "2.43 (active)"}
{"Target gene": "TBC1D21", "z-score vs non-targeting control": "2.24 (active)"}
{"Target gene": "EME1", "z-score vs non-targeting control": -0.124}
{"Target gene": "VWA1", "z-score vs non-targeting control": -0.343}
